The text below walks through data of patent US20100129348A1, “METHOD FOR […] INHIBITING THE ACTIVITY OF ALPHA 1B SUBUNIT OF N-TYPE CALCIUM CHANNEL” (Korea Institute of Science and Technology, priority 2002, published 2010).

The chains behind the UniProt entries cited, without tags or fusion partners. Residues count along the entry.
UniProt O55017, whole entry: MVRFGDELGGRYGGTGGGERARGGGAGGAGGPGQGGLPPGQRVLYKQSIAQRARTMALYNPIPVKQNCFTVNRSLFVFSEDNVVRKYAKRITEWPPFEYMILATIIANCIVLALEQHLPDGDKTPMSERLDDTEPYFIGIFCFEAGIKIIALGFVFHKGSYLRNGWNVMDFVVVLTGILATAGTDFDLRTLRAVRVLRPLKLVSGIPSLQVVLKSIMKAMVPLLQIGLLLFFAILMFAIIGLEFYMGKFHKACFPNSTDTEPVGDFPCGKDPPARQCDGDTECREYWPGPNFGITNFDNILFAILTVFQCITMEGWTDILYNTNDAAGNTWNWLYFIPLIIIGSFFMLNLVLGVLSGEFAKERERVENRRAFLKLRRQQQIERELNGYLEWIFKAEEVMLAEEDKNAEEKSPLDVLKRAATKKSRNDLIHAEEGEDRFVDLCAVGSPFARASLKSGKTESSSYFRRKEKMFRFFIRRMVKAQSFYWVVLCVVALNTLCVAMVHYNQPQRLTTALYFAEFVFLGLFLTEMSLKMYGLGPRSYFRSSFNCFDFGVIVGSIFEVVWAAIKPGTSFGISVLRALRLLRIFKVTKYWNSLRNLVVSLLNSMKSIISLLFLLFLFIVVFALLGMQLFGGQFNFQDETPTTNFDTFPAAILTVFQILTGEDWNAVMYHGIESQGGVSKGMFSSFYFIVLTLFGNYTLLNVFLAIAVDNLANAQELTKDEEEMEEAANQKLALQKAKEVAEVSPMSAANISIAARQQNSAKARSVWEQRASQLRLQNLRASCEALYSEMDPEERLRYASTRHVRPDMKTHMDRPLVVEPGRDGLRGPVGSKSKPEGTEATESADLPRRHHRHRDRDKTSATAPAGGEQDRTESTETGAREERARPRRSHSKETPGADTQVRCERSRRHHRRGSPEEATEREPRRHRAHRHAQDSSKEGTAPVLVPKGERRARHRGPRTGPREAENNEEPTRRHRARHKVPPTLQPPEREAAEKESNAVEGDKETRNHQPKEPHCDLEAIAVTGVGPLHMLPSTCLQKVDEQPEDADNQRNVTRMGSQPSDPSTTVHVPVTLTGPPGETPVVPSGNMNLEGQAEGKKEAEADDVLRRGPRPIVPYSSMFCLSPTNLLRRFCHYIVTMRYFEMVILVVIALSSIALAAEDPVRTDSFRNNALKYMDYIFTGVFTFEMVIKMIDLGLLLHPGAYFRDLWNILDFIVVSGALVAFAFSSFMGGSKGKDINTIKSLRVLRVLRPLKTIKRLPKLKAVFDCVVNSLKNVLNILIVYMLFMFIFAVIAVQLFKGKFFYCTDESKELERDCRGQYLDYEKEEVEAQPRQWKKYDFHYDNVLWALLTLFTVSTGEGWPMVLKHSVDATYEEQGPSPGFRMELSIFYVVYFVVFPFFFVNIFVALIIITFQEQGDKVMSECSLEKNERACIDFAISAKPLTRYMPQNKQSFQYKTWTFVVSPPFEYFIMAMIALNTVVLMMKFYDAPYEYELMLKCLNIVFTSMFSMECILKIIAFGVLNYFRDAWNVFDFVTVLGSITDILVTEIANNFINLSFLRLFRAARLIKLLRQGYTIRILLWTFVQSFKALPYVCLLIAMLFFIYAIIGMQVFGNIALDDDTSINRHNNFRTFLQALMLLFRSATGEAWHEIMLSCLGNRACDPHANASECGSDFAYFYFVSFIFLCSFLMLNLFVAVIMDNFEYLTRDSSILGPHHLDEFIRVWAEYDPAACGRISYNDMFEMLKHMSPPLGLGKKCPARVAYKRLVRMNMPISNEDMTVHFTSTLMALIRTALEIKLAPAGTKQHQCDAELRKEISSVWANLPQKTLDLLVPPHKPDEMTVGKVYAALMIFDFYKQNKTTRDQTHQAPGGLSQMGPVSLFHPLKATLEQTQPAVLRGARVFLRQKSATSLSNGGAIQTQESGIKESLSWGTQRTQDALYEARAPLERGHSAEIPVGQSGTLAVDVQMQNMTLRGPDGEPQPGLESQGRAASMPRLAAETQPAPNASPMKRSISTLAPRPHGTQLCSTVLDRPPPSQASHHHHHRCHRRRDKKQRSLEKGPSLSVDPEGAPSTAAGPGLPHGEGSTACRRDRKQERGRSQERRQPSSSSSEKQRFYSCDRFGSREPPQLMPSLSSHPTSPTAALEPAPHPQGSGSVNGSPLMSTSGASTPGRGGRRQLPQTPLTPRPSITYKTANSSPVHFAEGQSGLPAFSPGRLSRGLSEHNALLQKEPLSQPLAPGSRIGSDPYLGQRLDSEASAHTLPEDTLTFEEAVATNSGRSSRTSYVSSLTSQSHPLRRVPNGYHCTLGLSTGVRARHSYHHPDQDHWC
UniProt P54285, whole entry partner: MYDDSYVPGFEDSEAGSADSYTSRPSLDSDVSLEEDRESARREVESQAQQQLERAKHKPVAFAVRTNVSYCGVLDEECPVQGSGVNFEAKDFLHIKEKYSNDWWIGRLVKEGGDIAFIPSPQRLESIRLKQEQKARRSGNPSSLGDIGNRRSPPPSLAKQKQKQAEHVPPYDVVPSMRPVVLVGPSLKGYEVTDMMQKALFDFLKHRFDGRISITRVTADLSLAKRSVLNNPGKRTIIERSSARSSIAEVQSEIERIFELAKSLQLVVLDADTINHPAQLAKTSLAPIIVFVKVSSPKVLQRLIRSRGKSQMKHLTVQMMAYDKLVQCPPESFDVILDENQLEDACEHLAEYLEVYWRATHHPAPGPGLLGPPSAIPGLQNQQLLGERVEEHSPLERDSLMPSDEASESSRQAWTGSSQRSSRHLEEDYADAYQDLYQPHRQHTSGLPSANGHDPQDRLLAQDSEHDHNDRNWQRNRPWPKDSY
UniProt O08532, 25-956 partner limits assumed: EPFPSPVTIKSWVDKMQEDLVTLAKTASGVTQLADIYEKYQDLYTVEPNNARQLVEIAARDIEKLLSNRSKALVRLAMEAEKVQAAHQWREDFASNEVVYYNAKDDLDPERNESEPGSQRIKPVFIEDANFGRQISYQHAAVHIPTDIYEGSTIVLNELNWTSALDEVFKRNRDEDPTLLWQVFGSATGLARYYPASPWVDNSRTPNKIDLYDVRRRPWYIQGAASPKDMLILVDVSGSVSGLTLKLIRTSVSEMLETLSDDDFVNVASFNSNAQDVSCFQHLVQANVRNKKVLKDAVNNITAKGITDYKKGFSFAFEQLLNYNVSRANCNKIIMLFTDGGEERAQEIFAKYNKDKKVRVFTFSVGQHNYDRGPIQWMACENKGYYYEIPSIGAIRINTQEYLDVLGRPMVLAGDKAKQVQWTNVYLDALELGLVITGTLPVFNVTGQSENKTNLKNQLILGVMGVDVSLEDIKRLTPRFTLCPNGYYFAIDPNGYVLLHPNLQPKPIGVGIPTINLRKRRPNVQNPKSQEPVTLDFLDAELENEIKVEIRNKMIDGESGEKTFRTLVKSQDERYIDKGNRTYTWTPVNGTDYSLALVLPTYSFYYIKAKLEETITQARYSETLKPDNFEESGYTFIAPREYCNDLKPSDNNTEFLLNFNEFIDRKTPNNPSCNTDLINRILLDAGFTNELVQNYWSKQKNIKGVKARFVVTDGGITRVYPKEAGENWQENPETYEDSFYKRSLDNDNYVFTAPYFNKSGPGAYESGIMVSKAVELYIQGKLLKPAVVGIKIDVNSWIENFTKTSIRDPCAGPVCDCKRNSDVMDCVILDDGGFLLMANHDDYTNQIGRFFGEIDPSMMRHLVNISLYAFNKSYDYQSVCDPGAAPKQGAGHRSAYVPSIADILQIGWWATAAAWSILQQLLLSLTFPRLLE
UniProt O08532, 957-1103 partner limits assumed: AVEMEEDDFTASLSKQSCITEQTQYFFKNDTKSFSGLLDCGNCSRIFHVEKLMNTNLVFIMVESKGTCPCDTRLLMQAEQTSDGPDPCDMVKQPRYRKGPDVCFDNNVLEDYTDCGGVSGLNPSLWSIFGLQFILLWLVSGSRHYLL

The experiment addresses T1, alpha 1B subunit of N-type Ca2+ channel (Mus musculus, UniProt O55017).
T1 construct: F1 wild-type male mice were anesthetized with avertin; from tissue; host or cells: dorsal raphe nucleus of living F1 (C57BL/6J x 129S4/SvJae) wild-type male mice
Details: species or system mice. To be noted: in vivo.

In the case of ω-conotoxin GVIA, the “immobility in the forced swimming test” value is on record as “significantly reduced immobility”.
